Results of unrelated studies side by side (data: NIAID ChemDB).

Shared fields: whole-cell or culture tests

Inhibition is in % at the dose shown (toxicity tests: loss of growth or viability).

O=C(NN=Cc1cccs1)c1snnc1C(F)(F)F ; method: agar diffusion / agar ; dose: 100 µg/mL ; strain: NCIM 3462 ; read-out: zone ; agent: Candida rugosa ; result: 0 mm
CC(C)N=C(N)c1ccc2nc(-c3ccc4c(c3)Cc3cc(-c5nc6ccc(C(N)=NC(C)C)cc6[nH]5)ccc3-4)[nH]c2c1 ; strain: Isolate 3022 fluconazole-resistant ; read-out: MFC ; agent: Candida albicans ; result: 1.56 µg/mL
COc1ccc(C=NNC(=O)c2snnc2C(F)(F)F)cc1 ; method: agar diffusion / agar ; dose: 150 µg/mL ; strain: NCIM 3462 ; read-out: zone ; agent: Candida rugosa ; result: 0 mm
O/N=C\c1ccc(O)cc1 ; method: broth dilution ; read-out: MIC100 ; agent: Candida lipolytica ; result: >7290 µM
O=C(CCn1ccnc1)c1cccc2ccccc12 ; method: broth dilution ; strain: RTCC1248 ; read-out: MIC ; agent: Candida guilliermondii ; result: 64 µg/mL
CC(C)(O)c1cn(-c2ccc3ccccc3c2)nn1 ; method: broth dilution ; dose: 2048 µg/mL ; strain: URM 4261 ; read-out: inhibition ; agent: Candida parapsilosis ; result: 0%
CN(C)c1ccc(C=NNC(=O)c2snnc2C(F)(F)F)cc1 ; method: agar diffusion / agar ; dose: 150 µg/mL ; strain: NCIM 3462 ; read-out: zone ; agent: Candida rugosa ; result: 0 mm
C/C(=N/O)C(Cl)(Cl)Cl ; read-out: MIC100 ; agent: Candida famata ; result: 6450 µM
O=C1c2ccccc2CC1Cn1ccnc1 ; method: broth dilution ; strain: RTCC 1074 ; read-out: MIC ; agent: Candida kefyr ; result: 64 µg/mL
O=C(NN=Cc1ccco1)c1snnc1C(F)(F)F ; method: agar diffusion / agar ; dose: 100 µg/mL ; strain: NCIM 3462 ; read-out: zone ; agent: Candida rugosa ; result: 0 mm
O/N=C\c1ccc(F)cc1 ; read-out: MIC ; agent: Candida lipolytica ; result: 7200 µM
CC(C)(O)c1cn(-c2cccc3ccccc23)nn1 ; method: broth dilution ; dose: 2048 µg/mL ; strain: URM 4820 ; read-out: inhibition ; agent: Candida albicans ; result: 0%
C=CCc1ccc(O)c(OC)c1 ; method: turbidity ; strain: 2624 ; read-out: MIC90 ; agent: Candida glabrata ; result: 500 µg/mL
O=C(NN=Cc1ccc(F)cc1)c1snnc1C(F)(F)F ; method: agar diffusion / agar ; dose: 100 µg/mL ; strain: NCIM 3462 ; read-out: zone ; agent: Candida rugosa ; result: 0 mm
O=C(CCn1ccnc1)c1cccc(O)c1 ; method: broth dilution ; strain: RTCC1248 ; read-out: MIC ; agent: Candida guilliermondii ; result: >64 µg/mL
CC(C)(O)c1cn(-c2ccc(Cl)cc2)nn1 ; method: broth dilution ; strain: URM 3624 ; read-out: MIC ; agent: Candida parapsilosis ; result: 64 µg/mL
COc1ccc(/C=N\O)cc1 ; method: broth dilution ; read-out: MIC100 ; agent: Candida famata ; result: 6620 µM
O=C(CCn1ccnc1)c1cccc(C(O)c2ccc(Cl)cc2)c1 ; method: broth dilution ; strain: RTCC1248 ; read-out: MIC ; agent: Candida guilliermondii ; result: 16 µg/mL
Nc1ncccc1-c1cc(Cc2ccc(COc3ccccn3)cc2)no1 ; method: broth dilution ; strain: fluconazole-sensitive ; read-out: MIC90 ; agent: Candida spp. ; result: 0.06 µg/mL
O/N=C/c1ccc(O)cc1 ; read-out: MIC ; agent: Candida famata ; result: >7290 µM
OC(CCn1ccnc1)c1cccc(C(O)c2ccc(Cl)cc2)c1 ; method: broth dilution ; strain: RTCC 1377 ; read-out: MIC ; agent: Candida guilliermondii ; result: >64 µg/mL
O/N=C\c1ccccc1O ; read-out: MIC100 ; agent: Candida famata ; result: 3600 µM
CC(C)(O)c1cn(-c2ccc([N+](=O)[O-])cc2)nn1 ; method: broth dilution ; dose: 2048 µg/mL ; strain: URM 4261 ; read-out: inhibition ; agent: Candida parapsilosis ; result: 0%
CCCCCOc1ccc(-c2cc(-c3ccc(C(=O)N[C@H]4C[C@@H](O)[C@@H](O)NC(=O)[C@@H]5[C@@H](O)[C@@H](C)CN5C(=O)[C@H]([C@H](O)CC(N)=O)NC(=O)[C@H]([C@H](O)[C@@H](O)c5ccc(O)c(OS(=O)(=O)O)c5)NC(=O)[C@@H]5C[C@@H](O)CN5C(=O)[C@H]([C@@H](C)O)NC4=O)cc3)no2)cc1 ; method: broth dilution ; strain: fluconazole-sensitive ; read-out: MIC90 ; agent: Candida spp. ; result: 1 µg/mL
O=C(CCn1ccnc1)c1ccc2ccccc2c1 ; method: broth dilution ; strain: RTCC 1019 ; read-out: MIC ; agent: Candida kefyr ; result: 16 µg/mL

The first 3 rows once more:

O=C(NN=Cc1cccs1)c1snnc1C(F)(F)F ; method: agar diffusion / agar ; dose: 100 µg/mL ; strain: NCIM 3462 ; read-out: zone ; agent: Candida rugosa ; result: 0 mm
CC(C)N=C(N)c1ccc2nc(-c3ccc4c(c3)Cc3cc(-c5nc6ccc(C(N)=NC(C)C)cc6[nH]5)ccc3-4)[nH]c2c1 ; strain: Isolate 3022 fluconazole-resistant ; read-out: MFC ; agent: Candida albicans ; result: 1.56 µg/mL
COc1ccc(C=NNC(=O)c2snnc2C(F)(F)F)cc1 ; method: agar diffusion / agar ; dose: 150 µg/mL ; strain: NCIM 3462 ; read-out: zone ; agent: Candida rugosa ; result: 0 mm

MIC50, MIC90 and the like: level of inhibition, or share of isolates inhibited. Zones are inhibition diameters on agar. Neighbouring rows are from separate reports.